# PubChem BioAssay AID1224833 | University of Georgia – 2016
# Purpose: 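Human genes whose knock-down alters rotavirus replication in monkey cells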 (primary screen)
# System: monkey MA104 kidney cells
# Knock-down reagent: siRNA pool against human genes, 50 nM
# Duration: 48 h knock-down before infection; read 24 h after infection
# Treatment: infection with rotavirus strain RV3 two days after transfection; infectious dose for this stage not given
# Measured: 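Rotavirus antigen per well by fluorescent immunoassay, normalised to non-targeting control wells on each plate and given as a standard z-score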
# Direction: z-score vs non-targeting control: higher = more rotavirus replication than with non-targeting control
# Hit rule: In these data the active calls have z-score vs non-targeting control at about -1 or lower, or at about 1 or higher
# Meaning of the calls: active = z-score beyond 1 either way; inactive = z-score within 1 of zero
# The whole screen tested about 12,000 reagents; this is a random part of them. About 5,600 of all reagents (46%) count as active. 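Active calls cover z-scores past 1 in both directions, so they include lowered as well as raised rotavirus replication.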 Entries without a mark were called inactive.
Gene,z-score vs non-targeting control
ZNF391,-1.4 (active)
ZNF780B,-1.63 (active)
IKZF4,-0.497
SDCBP,0.676
BNIP2,-1.49 (active)
ZNF182,1.85 (active)
ZNF264,-1.72 (active)
BTBD17,-1.75 (active)
CCNJL,-0.654
CNIH4,1.44 (active)
STPG4,-2.31 (active)
L1CAM,1.4 (active)
LILRA2,-0.576
SLC52A3,-1.88 (active)
TAB3,-0.962
MRPL53,0.293
MYOT,-1.42 (active)
NRCAM,0.505
HEBP1,-0.575
C9orf78,-0.185
PMCH,0.0809
OR1D5,0.0374
CST1,0.864
ARMC10,-1.23 (active)
PPP1R18,0.927
ARMH4,0.618
HRNR,-1.59 (active)
ATP6V1C2,1.12 (active)
SLC52A2,1.77 (active)
SRY,-0.761
LYST,-1.04 (active)
CNNM3,-0.871
ARHGAP42,2.21 (active)
KIR2DL4,1.25 (active)
KRTAP10-11,-0.188
TRDN,-3.18 (active)
PCDHGB2,0.339
CALU,-1.85 (active)
OR1J1,0.246
TPST1,-1.14 (active)
LMF2,-1.25 (active)
EMILIN2,-1.62 (active)
MAPRE1,-0.519
FYRD1,-2.33 (active)
IFNL2,0.834
